Pooled drug test results. Numbers come from NIAID ChemDB, via PubChem.

Common to all: tests in culture; organism: Mycobacterium tuberculosis

ECn is the concentration giving n% inhibition of infection, replication or growth. Blank or dashed fields: not listed here. Two numbers with a dash give a range or band. Rows are shuffled and stem from different studies. MIC bound: limit read from a one-dose screen. Percent inhibition refers to the dose given; in toxicity tests it is the harm to the cells. MIC50, MIC90 and the like: level of inhibition, or share of isolates inhibited.

structure | read by | tested at | changes | strain or isolate | measure | value
COc1ccc(C(=O)[C@@H]2C[C@H](C#N)[C@@H]3C=Cc4c(ccc5cccnc45)N23)cc1 | reporter gene / fluorescence |  |  | H37Rv | EC50 | >200 µM
Cn1c2ccccc2c2cc(C=NNc3nc(-c4cccc(Cl)c4)cs3)ccc21 | fluorescence |  |  | H37Rv | EC90 | >200 µM
CCOC(=O)C1=C(C)N(c2ccc(F)c(Cl)c2)C(=O)NC1c1ccc(O)cc1 | resazurin |  |  | H37Rv | MIC | >6.25 µg/mL
NNC(=O)c1oc2ccccc2c1CN(CCO)CCO | BACTEC |  |  | H37Rv | MIC bound | >12.5 µg/mL
O=C(N/N=C/c1ccc(Br)cc1)c1ccc(F)cc1 |  | 6.25 µg/mL |  | H37Rv | inhibition | 36%
CCOC(=O)C1=C(C)N(c2ccc(F)c(Cl)c2)C(=O)NC1c1ccc(OC)cc1 | resazurin |  |  | H37Rv | MIC | >6.25 µg/mL
Cn1nnc(-c2ccc(-c3ccc(N4C[C@H](CO)OC4=O)cc3F)cn2)n1 |  |  |  | 61 isolates (isoniazid rifampin-susceptible) | MIC50 | 0.25 µg/mL
CC1=CC(=O)c2c(O)cccc2C1=O |  |  |  | H37Rv | MIC | <12.5 µg/mL
Cc1ccc2[nH]c3c(C)c4ccncc4c(C)c3c2c1 | resazurin / fluorescence |  | MDR | Jal 2287 | MIC | >100 µM
CCOC(=O)c1cn(-c2ccc(Cl)cc2)nn1 |  |  |  | H37Rv | MIC | >12.5 µg/mL
O=C(N/N=C/c1ccc(F)cc1)c1ccc(F)cc1 |  | 6.25 µg/mL |  | H37Rv | inhibition | 0%
COc1ccc(-c2nc3c(N)nc(N)nc3nc2C(C)C)cc1 | resazurin / fluorescence |  |  | H37Rv | MIC90 | 2–8 µM
CCOC(=O)c1cc(C(=O)c2ccc(C)cc2)n2c1ccc1c3ncccc3ccc12 | reporter gene / fluorescence |  |  | H37Rv | MIC | >200 µM
Cn1c2ccccc2c2cc(C=NNc3nc(-c4ccc(F)cc4)cs3)ccc21 | fluorescence |  |  | H37Rv | EC90 | 170 µM
NC[C@H]1O[C@H](O[C@H]2[C@H](O)[C@@H](O[C@H]3O[C@H](CO)[C@@H](O)[C@H](N)[C@H]3O)[C@H](N)C[C@@H]2N)[C@H](N)C[C@@H]1O |  |  |  | H37Rv | MIC | 8 µg/mL
Nc1ccc(O)c2c1C(=O)c1ccccc1C2=O | BACTEC |  |  | H37Rv | MIC bound | >12.5 µg/mL
CCCCCCCCCCCC/C=N/NC(=O)c1ccncc1 |  |  |  |  | MIC90 | 0.4 µg/mL
CN[C@@H]1[C@@H](O)[C@@H](O[C@@H]2[C@@H](O)[C@H](O[C@H]3O[C@H](CN)CC[C@H]3N)[C@@H](N)C[C@H]2N)OC[C@]1(C)O |  |  |  | H37Rv | MIC | 2 µg/mL
COc1cc(/C=C2/CN(C)CC3=C2NC(=S)NC3c2cc(OC)c(OC)c(OC)c2)cc(OC)c1OC.Cl | BACTEC | 12.5 µg/mL |  | H37Rv | inhibition | 0%
CCc1cc(C(C)=O)ccc1OCCCON1C(N)=NC(N)=NC1(C)C | resazurin / fluorescence |  |  | H37Rv | MIC90 | 0.5 µM
CC(=O)OCC1=COC(OC(=O)CC(C)(C)OC(C)=O)C2C1=CC(OC(=O)CC(C)C)C21CO1 | BACTEC |  |  | H37Rv | MIC | ≥12.5 µg/mL
Cn1c2ccccc2c2cc(C=NNc3nc(-c4cccs4)cs3)ccc21 | fluorescence |  |  | H37Rv | MIC | >200 µM
NC1=NC2(CCCCC2)N(OCCCOc2ccc3ccccc3c2)C(N)=N1 | resazurin / fluorescence |  | Overexpressing DHFR | H37Rv | MIC90 | 2 µM
COc1ccc(NC2=CC(=O)C(=O)c3ccccc32)nn1 |  | 6.25 µg/mL |  | H37Rv | inhibition | 10%
CN(C)c1ccc(/C=C/C/C=N/NC(=O)c2ccc(F)cc2)cc1 |  |  |  | H37Rv | EC50 | >6.25 µg/mL
NNC(=O)c1ccncc1 | resazurin / fluorescence |  | MDR | Jal 1934 | MIC | >100 µg/mL
COC(=O)c1c(C(=O)OC)c2ccc3c4ncccc4ccc3n2c1C(=O)c1ccc([N+](=O)[O-])cc1 | reporter gene / fluorescence |  |  | H37Rv | EC90 | >100 µM
O=C(NCc1ccc(N2CCN(Cc3ccccc3)CC2)cc1)c1ccc([N+](=O)[O-])o1 |  |  |  | CDC1551 | MIC | 0.024 µg/mL
Cc1ncc([N+](=O)[O-])n1CCNC(=O)CCC(=O)NCCCn1ccnc1[N+](=O)[O-] | resazurin | 6.25 µg/mL |  | H37Rv | inhibition | 4%
CN[C@@H]1[C@H](O[C@H]2[C@H](O[C@H]3[C@H](O)[C@@H](O)[C@H](N=C(N)N)[C@@H](O)[C@@H]3N=C(N)N)O[C@@H](C)[C@]2(O)C=O)O[C@@H](CO)[C@H](O)[C@H]1O |  |  |  | A4B (amikacin-resistant) | MIC | 4 µg/mL
Cn1c2ccccc2c2cc(C=NNc3nc(-c4ccc(Br)cc4)cs3)ccc21 | fluorescence |  |  | H37Rv | MIC | >200 µM
CCOC(=O)C1=C(C)N(c2ccc(F)c(Cl)c2)C(=O)NC1c1ccc(F)cc1 | resazurin |  |  | H37Rv | MIC | >6.25 µg/mL
CO[C@H]1/C=C/O[C@@]2(C)Oc3c(C)c(O)c4c(O)c(c5c(c4c3C2=O)NC2(CCN(CC(C)C)CC2)N=5)=NC(=O)/C(C)=C\C=C\[C@H](C)[C@H](O)[C@@H](C)[C@@H](O)[C@@H](C)[C@H](OC(C)=O)[C@@H]1C |  |  |  | TBH1-7 (rifampin-susceptible) | MIC | <0.5 µg/mL
C[C@]1(COc2ccc(N3CCC(Oc4ccc(OC(F)(F)F)cc4)CC3)cc2)Cn2cc([N+](=O)[O-])nc2O1 |  |  |  | H37Rv | MIC | 0.024 µg/mL
N#CC(C(=O)c1ccccc1F)c1nc2ccccc2[nH]1 | resazurin |  |  | H37Rv | MIC bound | >6.25 µg/mL
Cn1c2ccccc2c2cc(C=NNc3nc(-c4cc5ccccc5oc4=O)cs3)ccc21 | fluorescence |  |  | H37Rv | EC90 | >25 µM
CN(C)c1ccc(/C=N/NC(=O)c2ccc(N(C)C)cc2)cc1 | BACTEC | 12.5 µg/mL |  | H37Rv | inhibition | -20%
CCOC(=O)N1CCN(c2ccc(C3CC(c4ccc([N+](=O)[O-])o4)=NO3)cc2)CC1 |  |  |  | H37Rv | MIC | 0.006 µg/mL
O=c1oc2ccccc2c(O)c1C=Nc1ccccc1 | BACTEC | 12.5 µg/mL |  | H37Rv | inhibition | 26%
CCCCCCCCCN1C(=O)CC(SCCNC(=O)C2CCCCC2)C1=O |  |  |  | H37Rv | MIC | ≤20 µg/mL
O=C(c1cn(CCBr)nn1)c1cccs1 |  |  |  | H37Rv | MIC | <12.5 µg/mL
O=C(N/N=C/c1cccc(/C=N/NC(=O)c2ccncc2)c1)c1ccncc1 |  |  |  |  | MIC90 | 0.8 µg/mL
CC(C)c1c(O)ccc2c1CCC1C(C)(C)CCC[C@]21C |  |  |  | H37Rv | MIC | >12.5 µg/mL
CN(C)c1nn2c(-c3ccccc3)nnc2s1 | BACTEC |  |  | H37Rv | MIC bound | >12.5 µg/mL
CCCN(C(=O)COc1cc2c(O)c3c(O)c(C)c4c(c13)C(=O)[C@@](C)(O/C=C/[C@H](OC)[C@@H](C)[C@@H](OC(C)=O)[C@H](C)[C@H](O)[C@H](C)[C@@H](O)[C@@H](C)/C=C/C=C(/C)C(=O)N2)O4)N(C)C |  |  |  |  | EC50 | 0.15 µg/mL
CCOC(=O)c1cc(C(=O)c2ccccc2)n2c1ccc1c3ncccc3ccc12 | reporter gene / fluorescence |  |  | H37Rv | EC50 | >200 µM
CN[C@@H]1[C@H](O)[C@H](NC)[C@H]2O[C@@]3(O)C(=O)C[C@@H](C)O[C@H]3O[C@@H]2[C@H]1O |  |  |  | H37Rv | MBC | >64 µg/mL
Cc1cc2c(cc1C)[n+]([O-])c(-c1nc3ccccc3s1)c(N)[n+]2[O-] |  |  |  | RMP-R | MIC | 12.5 µg/mL
CCCCN(C(=O)COc1cc2c(O)c3c(O)c(C)c4c(c13)C(=O)[C@@](C)(O/C=C/[C@H](OC)[C@@H](C)[C@@H](OC(C)=O)[C@H](C)[C@H](O)[C@H](C)[C@@H](O)[C@@H](C)/C=C/C=C(/C)C(=O)N2)O4)N1CCCCC1 |  |  |  |  | EC50 | 0.09 µg/mL
CC1=C(C(=O)Nc2ccc(C)cc2)C(c2cccc(Cl)c2)NC(=O)N1c1ccc(F)c(Cl)c1 | resazurin |  |  | H37Rv | MIC | >6.25 µg/mL
Cc1[nH]n(-c2nc(-c3ccccc3)cc(=O)[nH]2)c(=O)c1CCO | resazurin | 6.25 µg/mL |  | H37Rv | inhibition | 28%
COc1ccc(-c2csc(NN=Cc3ccc4c(c3)c3ccccc3n4C)n2)cc1OC | fluorescence |  |  | H37Rv | EC50 | 28 µM
Cc1c2ccncc2c(C)c2c1[nH]c1ccc(Br)cc12 | resazurin / fluorescence |  | XDR | MYC 431 | MIC | >100 µM
O=C(c1ccc2ccccc2c1)c1cn(-c2cccc3ccccc23)nn1 |  |  |  | H37Rv | MIC | >12.5 µg/mL
CC(=O)O[C@@H]1c2c3c(n(C#N)c2[C@H](OC(C)=O)[C@](C)(O)[C@H]1OC(C)=O)C(=O)c1c(O)cccc1C3=O | BACTEC | 12.8 µg/mL |  | H37Rv | inhibition | 100%
CO[C@H]1/C=C/O[C@@]2(C)Oc3c(C)c(O)c4c(O)c(cc(OCC(=O)NNc5ccccc5)c4c3C2=O)NC(=O)/C(C)=C\C=C\[C@H](C)[C@H](O)[C@@H](C)[C@@H](O)[C@@H](C)[C@H](OC(C)=O)[C@@H]1C |  |  |  |  | EC50 | 0.037 µg/mL
Cn1c([N+](=O)[O-])cnc1COC(=O)N1CCN(C(=O)OCc2ncc([N+](=O)[O-])n2C)CC1 | resazurin | 6.25 µg/mL |  | H37Rv | inhibition | -5%
CCCCCCCCN1C(=O)CC(C)(SCC(N)C(=O)O)C1=O |  |  |  | Clinical isolate (isoniazid-resistant) | MIC | ≤20 µg/mL
CC(C)(C)C1CCC(=NNC(=O)c2ccncc2)CC1 |  |  |  | Erdman | MIC | 0.1 µg/mL
CN1CCN(C(=S)N(C)C(=O)c2ccco2)CC1 | BACTEC | 12.5 µg/mL |  | H37Rv | inhibition | 13%
CO[C@H]1/C=C/O[C@@]2(C)Oc3c(C)c(O)c4c(O)c(cc(OCC(=O)NN)c4c3C2=O)NC(=O)/C(C)=C\C=C\[C@H](C)[C@H](O)[C@@H](C)[C@@H](O)[C@@H](C)[C@H](OC(C)=O)[C@@H]1C |  |  |  |  | EC50 | 0.15 µg/mL
CCOC(=O)c1cc(C(=O)c2ccc(Br)cc2)n2c1ccc1c3ncccc3ccc12 | reporter gene / fluorescence |  |  | H37Rv | EC90 | >100 µM
CC(C)=NNC(=O)Nc1ccc(C)c(Cl)c1 | BACTEC | 12.5 µg/mL |  | H37Rv | inhibition | 91%
CCc1ccccc1OCCCON1C(N)=NC(N)=NC1(C)C | resazurin / fluorescence |  |  | H37Rv | MIC90 | 0.5 µM
NNC(=O)c1ccccc1 |  |  |  | Erdman | MIC | 0.03 µg/mL
O=C(N/N=C/c1ccc(Cl)cc1)c1ccc(F)cc1 |  | 6.25 µg/mL |  | H37Rv | inhibition | 28%
CCCCCCCCCN1C(=O)CC(NCCCCCCCC)C1=O |  |  |  | Clinical isolate (isoniazid-resistant) | MIC | ≤20 µg/mL
CCOC(=O)c1cn(O)nn1 |  | 12.5 µg/mL |  | H37Rv | inhibition | 0%
NC(=O)c1cnccn1 |  |  |  | M4812/NIACIN+ | MIC | 2048 µg/mL
COC(=O)/C=C/C1(CCC(=O)OC)N=C(c2ccccc2)OC1=O | BACTEC | 12.5 µg/mL |  | H37Rv | inhibition | 16%
Cc1c(Cc2ccccc2Br)cnc2nc(N)nc(N)c12 | resazurin / fluorescence |  | Overexpressing DHFR | H37Rv | MIC90 | 30 µM
COc1ccc(C(=O)c2c(C(C(=O)c3ccc(OC)cc3)C(=O)c3ccc(OC)cc3)n(C(=O)c3ccc(OC)cc3)c3ccccc23)cc1 | BACTEC |  |  | H37Rv | MIC bound | >12.5 µg/mL
CCN1C(=O)[C@@H]2[C@H](C1=O)[C@@H](C(=O)c1ccc(C)cc1)N1c3ccc4cccnc4c3C=C[C@H]21 | reporter gene / fluorescence |  |  | H37Rv | MIC | >200 µM
COc1ccc(N2C(=O)C(=O)N(c3ccccc3[N+](=O)[O-])C2=S)cc1 | BACTEC |  |  | H37Rv | MIC bound | >12.5 µg/mL
CCCCCCCCCN1C(=O)CC(C)(SCC(N)C(=O)O)C1=O |  |  |  | H37Rv | MIC | ≤20 µg/mL
COc1c(OC(C)=O)ccc(/C=C2/N=C(C)OC2=O)c1[N+](=O)[O-] | BACTEC |  |  | H37Rv | MIC bound | >12.5 µg/mL
CC(C)OC(=O)c1cc[n+](CC(=O)c2ccccc2)cc1.[Br-] | resazurin |  | MDR |  | MIC | 2 µg/mL

9 of the rows above, restated:

structure	read by	tested at	changes	strain or isolate	measure	value
CO[C@H]1/C=C/O[C@@]2(C)Oc3c(C)c(O)c4c(O)c(cc(OCC(=O)NN)c4c3C2=O)NC(=O)/C(C)=C\C=C\[C@H](C)[C@H](O)[C@@H](C)[C@@H](O)[C@@H](C)[C@H](OC(C)=O)[C@@H]1C					EC50	0.15 µg/mL
CCOC(=O)c1cc(C(=O)c2ccc(Br)cc2)n2c1ccc1c3ncccc3ccc12	reporter gene / fluorescence			H37Rv	EC90	>100 µM
O=C(N/N=C/c1cccc(/C=N/NC(=O)c2ccncc2)c1)c1ccncc1					MIC90	0.8 µg/mL
O=C(NCc1ccc(N2CCN(Cc3ccccc3)CC2)cc1)c1ccc([N+](=O)[O-])o1				CDC1551	MIC	0.024 µg/mL
O=C(N/N=C/c1ccc(Br)cc1)c1ccc(F)cc1		6.25 µg/mL		H37Rv	inhibition	36%
CC(=O)O[C@@H]1c2c3c(n(C#N)c2[C@H](OC(C)=O)[C@](C)(O)[C@H]1OC(C)=O)C(=O)c1c(O)cccc1C3=O	BACTEC	12.8 µg/mL		H37Rv	inhibition	100%
Cn1c2ccccc2c2cc(C=NNc3nc(-c4cccs4)cs3)ccc21	fluorescence			H37Rv	MIC	>200 µM
N#CC(C(=O)c1ccccc1F)c1nc2ccccc2[nH]1	resazurin			H37Rv	MIC bound	>6.25 µg/mL
CCOC(=O)C1=C(C)N(c2ccc(F)c(Cl)c2)C(=O)NC1c1ccc(F)cc1	resazurin			H37Rv	MIC	>6.25 µg/mL